Pooled drug test results. Numbers come from NIAID ChemDB, via PubChem.

All rows: host cell toxicity; cells: H9; measure: CC50

CCn: concentration that lowers growth or viability of the cells by n%. Lines come from different laboratories, so protocols vary.

compound | value
Nc1nc2c(ncn2[C@@H]2O[C@H](CO)[C@@H](O)[C@H]2O)c(=O)o1 | >30 µg/mL
CC(C)C(NC(=O)C[C@@H]1O[C@@H]1[C@H](Cc1ccccc1)NC(=O)[C@@H](NC(=O)OCc1cccnc1)C(C)(C)S(C)(=O)=O)C(C)C | >100 µM
C/C=C(/C)C(=O)OC1c2cc3c(c4c2[C@](C(=O)C(=O)OC)(CO4)/C(=C\C(=O)OC)C[C@@H](C)[C@H]1C)OCO3 | >100 µg/mL
CC(C)[C@H](Cc1ccccc1)NC(=O)C[C@@H]1O[C@@H]1[C@H](Cc1ccccc1)NC(=O)[C@@H](NC(=O)c1ccc2ccccc2n1)C(C)(C)S(C)(=O)=O | >100 µM
OCc1cc(OCc2ccccc2)c(OCc2ccccc2)c(O)c1-c1c(CO)cc(OCc2ccccc2)c(OCc2ccccc2)c1O | 13 µM
CC(C)[C@H](Cc1ccccc1)NC(=O)C[C@@H]1O[C@@H]1[C@H](Cc1ccccc1)NC(=O)[C@@H](NC(=O)OCc1ccccn1)C(C)(C)S(C)(=O)=O | >100 µM
COc1cc2c(c(OC)c1OC)-c1c(cc3c(c1OC)OCO3)C[C@H](C)[C@@](C)(O)C2 | 50 µg/mL
COc1cc(C=O)c(-c2c(C=O)cc(OC)c(OC)c2OC)c(OC)c1OC | 10 µM
COc1c(Br)c2c(c(OC)c1OC)-c1c(c(Br)c(OC)c(OC)c1OC)C[C@H](C)[C@H](C)C2 | 25 µg/mL
CC(C)[C@H](Cc1ccccc1)NC(=O)C[C@@H]1O[C@@H]1[C@H](Cc1ccccc1)NC(=O)[C@@H](NC(=O)COc1cccc2cnccc12)C(C)(C)S(C)(=O)=O | >100 µM
Nc1nc2c(ncn2[C@@H]2O[C@H](COS(N)(=O)=O)[C@@H](O)[C@H]2O)c(=O)o1 | >30 µg/mL
CC(C)[C@@H](NC(=O)C[C@@H]1O[C@@H]1[C@H](Cc1ccccc1)NC(=O)[C@H](CS(C)(=O)=O)NC(=O)c1ccc2ccccc2n1)c1ccccc1 | >100 µM
O=Cc1cc(OCc2ccccc2)c(OCc2ccccc2)c(OCc2ccccc2)c1-c1c(C=O)cc(OCc2ccccc2)c(OCc2ccccc2)c1OCc1ccccc1 | 70 µM
Nc1nc2c(ncn2[C@H]2CC[C@@H](CO)O2)c(=O)o1 | >30 µg/mL
COc1c(OCc2ccccc2)c(OCc2ccccc2)cc(CO)c1-c1c(CO)cc(OCc2ccccc2)c(OCc2ccccc2)c1OC | >140 µM
COc1cc2c(c(OC)c1OC)-c1c(cc(OC)c(OC)c1OC)C[C@](C)(O)[C@@H](C)C2 | 9 µg/mL

Repeating the final 2 entries:

compound,value
COc1c(OCc2ccccc2)c(OCc2ccccc2)cc(CO)c1-c1c(CO)cc(OCc2ccccc2)c(OCc2ccccc2)c1OC,>140 µM
COc1cc2c(c(OC)c1OC)-c1c(cc(OC)c(OC)c1OC)C[C@](C)(O)[C@@H](C)C2,9 µg/mL